Measurements reported in PubChem BioAssay AID504761 (Drosophila RNAi Screening Center, 2011).
Test: 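Fly genes whose silencing reduces dengue virus type 2 infection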 (primary screen). Cell system: D.Mel-2 cells from Drosophila. Reagents: long dsRNA against Drosophila genes. Conditions: infection with dengue virus type 2; dose and infection time not stated. Measured: 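Cells stained for dengue envelope protein and imaged; percent of infected cells per well on duplicate plates, ranked by infection, with stained nuclei counted for cell number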. Reading the numbers: infection score: higher = more virus-infected cells. Hit rule: 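Low infection ranks in the two replicates (chance level up to 0.065) followed by a retest with a 1.5-fold or larger significant decrease, p below 0.05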. Meaning of the calls: active = confirmed: knock-down lowers infection; inactive = not picked or not confirmed.
The screen tested about 22,000 reagents; shown is an unselected part of those with a known target gene and a result. Over the whole deposit, 116 (0.52%) are marked active. 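Calls depend on retest data that are not deposited; infection was ranked per plate without normalising between plates; the unit of the infection score is not given.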 A number with no mark means an inactive call. The numbers tell different reagents against one gene apart. Names joined by + are all predicted targets of the reagent. Not all columns of the deposit are shown. Not given: the amount of reagent, the time to read-out.

CAH8
- infection score, replicate 1: 6.85

Vha100-5 #1
- infection score, replicate 1: 13.4

Vha100-5 #2
- infection score, replicate 1: 3.91

CG32544 #1
- infection score, replicate 1: 4.44

CG32544 #2
- infection score, replicate 1: 10.2

Spn38F #1
- infection score, replicate 1: 2.47

Spn38F #2
- infection score, replicate 1: 6.5

firl
- infection score, replicate 1: 5.44

CG13055 #1
- infection score, replicate 1: 0.53

CG13055 #2
- infection score, replicate 1: 9.64

CG7203 #1
- infection score, replicate 1: 6.72

CG7203 #2
- infection score, replicate 1: 2.82

CG4704
- infection score, replicate 1: 4.27

CG14926
- infection score, replicate 1: 11.1

Ctns
- infection score, replicate 1: 11

kl-2
- infection score, replicate 1: 5.56

ALiX #1
- infection score, replicate 1: 7.16

ALiX #2
- infection score, replicate 1: 16.1

CG5921 #1
- infection score, replicate 1: 0.39

CG5921 #2
- infection score, replicate 1: 15.4

CG5921 #3
- infection score, replicate 1: 4.21

CG42382
- infection score, replicate 1: 2.93

dl #1
- infection score, replicate 1: 3.56

dl #2
- infection score, replicate 1: 0.23

Ir7g #1
- infection score, replicate 1: 5.6

Ir7g #2
- infection score, replicate 1: 27.5

Ada1-1 + Ada1-2 #1
- infection score, replicate 1: 5.99

Ada1-1 + Ada1-2 #2
- infection score, replicate 1: 3.04

Ada1-1 + Ada1-2 #3
- infection score, replicate 1: 40.8

2 neighbouring reagents already listed, for reference:
CG5921 #3
- infection score, replicate 1: 4.21

CG42382
- infection score, replicate 1: 2.93
